The test has as its system CTLL-2 cells. Description: CTLL-2 proliferation assay (immunosuppression by monomeric and dimeric peptides). It is filed as cell-based. The following applies: FIG. 2; Flavi virus derived peptides, two independent experiments.

In the case of DRGWGNGCGLFGKG, the “proliferation of CTLL-2 cells” value is on record as “significant inhibition of proliferation of CTLL-2 cells”.

The values are drawn from US20160166676A1 (priority 2013, published 2016).
